# Experimental data taken from US6426231B1 (priority 1998, dated 2002).
# Several values for one entry are separate records, joined by “and”; a condition that tells them apart may be missing. Identical values can stand only once. Like-named read-outs stand apart in the source and are kept apart here.
# Columns and labels:
# [1] = biological target: αHL-M113N (Staphylococcus aureus, UniProt P09616, G156S/I168L/K34A/M139N/N165Q/V150L); details: for g (conductance): −40 mV, 1M NaCl, 10 mM Na phosphate
# [2] = biological target: αHL-E111N/K147N (Staphylococcus aureus, UniProt P09616, E137N/G156S/I168L/K173N/K34A/N165Q/V150L); details: −40 mV, 1M NaCl, 10 mM Na phosphate, pH 7.5
# [3] = biological target: αHL-CH1 (Staphylococcus aureus, UniProt P09616, DEL150-163/F146V/G145E/INS166HASFFDIGGSVSAG/N147H/N165E); details: −40 mV, 1M KCl, 10 mM K phosphate, pH 7.4
# [4] = pH 7.5, KCl in mM [cis/trans] [200/1000]
# [5] = range over both KCl gradient directions, pH 7.5
Substance,"PK+/PCl− [1, 4]","PK+/PCl− ([1]; pH 7.5, KCl in mM [cis/trans] [1000/200])","PK+/PCl− [1, 5]",g (conductance) [2] [pS],g (conductance) ([1]; pH 7.5) [pS],g (conductance) [3],"binding of β-cyclodextrin, times more tightly than WT homoheptamers ([1]; homoheptameric αHL-M113N vs WT)"
heptakis-6-sulfato-β-cyclodextrin,4.1 ± 0.2 ^c,6.1 ± 0.14 ^d,4.1-6.1,–,–,–,–
γ-cyclodextrin,–,–,–,275 ± 4,287 ± 5,–,–
β-cyclodextrin,0.079 ± 0.005 ^c,–,0.046-0.079,207 ± 7,261 ± 4,109 pS and 109 ± 9 pS,10^4 times
